Compound potency records, mixed from different reports. Data source: NIAID ChemDB in PubChem.

Percent inhibition refers to the dose given; in toxicity tests it is the harm to the cells.

structure,target,test,strain,read-out,method,species,cells,dose,value
O=C(O)CC(Br)C(=O)O,-,culture,H37Rv,MIC,-,Mycobacterium tuberculosis,-,-,>100 µg/mL
Fc1ccc(N2CCN(c3cncc(-c4cccc5ccccc45)n3)CC2)c(F)c1,UL97 kinase,target,-,inhibition,-,Cytomegalovirus,-,10 µM,>15%
COc1ccc2nc3cc(Cl)ccc3c(NC(C)CCN3CCCCC3)c2c1,-,culture,H37Rv,MIC,-,Mycobacterium tuberculosis,-,-,>100 µg/mL
COc1cccc(-c2cncc(N3CCN(c4ccc(Cl)cc4)CC3)n2)c1,UL97 kinase,target,-,IC50,-,Cytomegalovirus,-,-,<10 µM
CC(C)C1=CC2=CC(=O)[C@H]3C(C)(C)CCC[C@]3(C)C2=C(O)C1=O,-,culture,H37Rv,MIC,BACTEC,Mycobacterium tuberculosis,VERO,-,12.5 µg/mL
Fc1ccc(N2CCCCC2)c(NC(=S)c2ccncc2)c1,WNK3,host protein,-,inhibition,kinase activity,-,-,10 µM,13%
COc1ccc(N2CCN(c3cncc(-c4ccc(C(F)(F)F)cc4)n3)CC2)cc1OC,UL97 kinase,target,-,inhibition,-,Cytomegalovirus,-,1 µM,<50%
CCOC(=O)C1=C(C)O/C(=C\C=C\c2ccccc2)C1=O,-,culture,H37Rv,inhibition,BACTEC,Mycobacterium tuberculosis,-,12.5 µg/mL,38%
COc1ccc(N2CCN(c3cncc(-c4cccc(C#N)c4)n3)CC2)cc1OC,UL97 kinase,target,-,inhibition,-,Cytomegalovirus,-,10 µM,>15%
CC1Oc2cc3c(-c4c(O)cc(O)c5c(O)c6c(cc45)OC(C)C(C)C6=O)c(O)cc(O)c3c(O)c2C(=O)C1C,-,culture,H37Rv,MIC bound,BACTEC,Mycobacterium tuberculosis,-,-,>12.5 µg/mL
CCOc1ccc(-c2cncc(N3CCN(c4ccc(C(C)=O)cc4)CC3)n2)cc1,UL97 kinase,target,-,IC50,-,Cytomegalovirus,-,-,<100 µM
CCN(CC)CCOC(=O)c1ccc(N)cc1,-,culture,H37Rv,MIC,-,Mycobacterium tuberculosis,-,-,>100 µg/mL
CCC(CC)C(=O)NC(=O)NC(=O)N1CC(C)OC(C)C1,-,culture,H37Rv,inhibition,BACTEC,Mycobacterium tuberculosis,-,12.5 µg/mL,0%
CCOC(=O)C1CCCCC1=O,-,culture,H37Rv,MIC,-,Mycobacterium tuberculosis,-,-,>100 µg/mL
CC(=O)c1nc2ccccc2n1CC(=O)c1ccc([N+](=O)[O-])cc1,-,culture,H37Rv,inhibition,resazurin,Mycobacterium tuberculosis,-,6.25 µg/mL,-12%
Nc1cc(O)c(C(=O)O)c(O)c1,-,culture,H37Rv,MIC,-,Mycobacterium tuberculosis,-,-,50 µg/mL
O=C(N/N=C/c1ccc(O)cc1O)c1ccncc1,-,culture,KM-R,MIC,-,Mycobacterium tuberculosis,-,-,1 µg/mL
Cc1cc(C)c(/C(Cl)=C/C(=O)O)c(C)c1C,-,culture,H37Rv,MIC,-,Mycobacterium tuberculosis,-,-,>100 µg/mL
Oc1ccc([C@H]2Oc3cc(O[C@@H]4OC[C@@H](O)[C@H](O)[C@H]4O)cc(O)c3C[C@@H]2O)cc1O,-,culture,H37Rv,inhibition,BACTEC,Mycobacterium tuberculosis,-,12.5 µg/mL,-2%
Cc1cccc2ccc(-c3ccc(-n4c(C)ccc4C)cc3)nc12,-,culture,H37Rv,MIC,-,Mycobacterium tuberculosis,-,-,>100 µg/mL
CC(C)(C)c1ccc(-c2cncc(N3CCN(c4ccncc4)CC3)n2)cc1,UL97 kinase,target,-,IC50,-,Cytomegalovirus,-,-,<10 µM

For reference, 3 entries again:

CC(C)(C)c1ccc(-c2cncc(N3CCN(c4ccncc4)CC3)n2)cc1 ; target: UL97 kinase ; test: target ; read-out: IC50 ; species: Cytomegalovirus ; value: <10 µM
COc1ccc(N2CCN(c3cncc(-c4cccc(C#N)c4)n3)CC2)cc1OC ; target: UL97 kinase ; test: target ; read-out: inhibition ; species: Cytomegalovirus ; dose: 10 µM ; value: >15%
CCOC(=O)C1=C(C)O/C(=C\C=C\c2ccccc2)C1=O ; test: culture ; strain: H37Rv ; read-out: inhibition ; method: BACTEC ; species: Mycobacterium tuberculosis ; dose: 12.5 µg/mL ; value: 38%

MIC bound: limit read from a one-dose screen. Blank or dashed fields: not listed here. ICn: concentration for n% inhibition. Lines come from different laboratories, so protocols vary.